Values from PubChem BioAssay AID1259414 (Drosophila RNAi Screening Center, 2018).

- Screen: 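Host factors increasing or decreasing Wolbachia levels in cultured fly cells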 (primary screen)
- Cell system: Drosophila JW18 cells infected with Wolbachia
- Reagent: long dsRNA against Drosophila genes, 0.25 µg dsRNA per well of a 384-well plate
- Time to read-out: 5 days
- Challenge: cells persistently infected with Wolbachia before knock-down; no added drug
- Read-out: 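Imaged fluorescence in situ signal for Wolbachia 23S rRNA per DAPI-counted host cell, given as a robust z-score within each plate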
- Direction: Wolbachia per cell robust z: higher = more Wolbachia per host cell than the plate typical
- Hit rule: 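Active if absolute robust z reaches 1.5 in two or more of three replicates, leaving out multi- or no-target dsRNAs, genes unexpressed in JW18 and A1 wells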
The screen tested about 24,000 reagents; this is a random part of those with a known target gene and a result. Over the whole deposit, about 1,210 (5%) are marked active. 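Inactive calls also include excluded dsRNAs with several or no targets, genes unexpressed in JW18, and well A1, regardless of score.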 Names joined by + are all predicted targets of the reagent.

gene knocked down,amplicon,"Wolbachia per cell robust z, rep 1","Wolbachia per cell robust z, rep 2","Wolbachia per cell robust z, rep 3",outcome
Rh6 (GeneID 41889),DRSC16823,-0.561,0.128,-0.944,inactive
Rh6 (GeneID 41889),DRSC26166,-0.232,0.629,0.324,inactive
beat-Vc (GeneID 41575),DRSC12927,-2.67,-0.55,0.109,inactive
beat-Vc (GeneID 41575),DRSC14849,1.19,0.978,-0.0904,inactive
ND-19 (GeneID 37946),DRSC04404,0.0919,-0.172,0.281,inactive
ND-19 (GeneID 37946),DRSC27604,-7.82,-0.829,-0.477,inactive
Nach (GeneID 36864),DRSC07478,-3.61,0.354,-2.53,inactive
CG14265 (GeneID 31297),DRSC18591,-1.43,-0.192,-1.19,inactive
CG14265 (GeneID 31297),DRSC29212,0.458,0.774,0.674,inactive
Ubr3 (GeneID 31713),DRSC17987,0.73,0.0308,0.852,inactive
Ubr3 (GeneID 31713),DRSC17997,0.353,-2.7,0.511,inactive
Ubr3 (GeneID 31713),DRSC27473,-5.43,-0.25,-0.762,inactive
Ubr3 (GeneID 31713),DRSC29072,1.24,-0.0589,-0.361,inactive
Papss (GeneID 40167),DRSC11246,-2.43,-1.41,0.754,inactive
Papss (GeneID 40167),DRSC27101,-0.795,-1.3,-0.542,inactive
CG42751 (GeneID 10178957),DRSC41354,-1.22,-0.745,0.0299,inactive
Golgin245 (GeneID 37702),DRSC04374,-0.17,0.207,-2.14,inactive
Golgin245 (GeneID 37702),DRSC22012,0.361,0.738,0.317,inactive
Golgin245 (GeneID 37702),DRSC30015,0.0694,-0.88,0.905,inactive
CycD (GeneID 32551),DRSC20233,1.54,1,-3.17,inactive
CycD (GeneID 32551),DRSC25031,1.32,2.17,1.28,inactive
Sara (GeneID 44263),DRSC04653,-1.08,-0.907,-1.14,inactive
CG4198 (GeneID 31445),DRSC18354,-1.28,0.641,-2.45,inactive
CG4198 (GeneID 31445),DRSC26635,-1.3,-0.0579,1.66,inactive
Fim (GeneID 32721),DRSC20243,0.317,0.33,0.774,inactive
asRNA:CR42254 (GeneID 26067094),DRSC06194,0.0702,0.341,-0.745,inactive
CycB (GeneID 37618),DRSC04605,-0.171,-0.108,0.3,inactive
CycB (GeneID 37618),DRSC40833,-1.33,-0.513,-0.451,inactive
puml (GeneID 35733),DRSC06793,0.514,-0.264,-1.82,inactive
ClC-a (GeneID 41428),DRSC14947,-0.00377,1.33,-3.63,inactive
ClC-a (GeneID 41428),DRSC14948,0.453,0.404,-0.153,inactive
ClC-a (GeneID 41428),DRSC16142,-3.87,1.01,1.14,inactive
Ufc1 (GeneID 36762),DRSC07156,0.7,0.635,-0.597,inactive
teq (GeneID 39048),DRSC10298,1.09,0.369,0.588,inactive
teq (GeneID 39048),DRSC11301,0.458,-1.09,-2.4,inactive
teq (GeneID 39048),DRSC11302,-0.683,-0.331,0.361,inactive
VhaSFD (GeneID 34997),DRSC03471,1.1,0.87,1.29,inactive
CG13003 (GeneID 32675),DRSC19522,-3.33,0.128,0.0511,inactive
CG43052 (GeneID 12798214),DRSC03059,0.396,-0.27,-0.394,inactive
cic (GeneID 53560),DRSC16918,-3.89,0.84,0.61,inactive
cic (GeneID 53560),DRSC21243,0.0903,0.472,0.935,inactive
cic (GeneID 53560),DRSC23217,0.774,0.79,0.934,inactive
cic (GeneID 53560),DRSC25516,-0.921,-0.386,0.659,inactive
cic (GeneID 53560),DRSC25800,-1.31,-1.66,0.104,inactive
cic (GeneID 53560),DRSC30090,-1.42,-0.348,-0.434,inactive
Lipt2 (GeneID 40565),DRSC12338,-1.05,-0.0293,0.602,inactive
Lipt2 (GeneID 40565),DRSC22610,0.804,0.508,0.411,inactive
CG9691 (GeneID 31923),DRSC18441,0.889,-1.66,0.514,inactive
CG18766 (GeneID 59150),DRSC15936,-2.79,1,0.751,inactive
CG18766 (GeneID 59150),DRSC25739,-1.36,-0.279,0.0604,inactive

Targets listed so far whose target name begins with P or p:
gene knocked down,amplicon,"Wolbachia per cell robust z, rep 1","Wolbachia per cell robust z, rep 2","Wolbachia per cell robust z, rep 3",outcome
Papss (GeneID 40167),DRSC11246,-2.43,-1.41,0.754,inactive
Papss (GeneID 40167),DRSC27101,-0.795,-1.3,-0.542,inactive
puml (GeneID 35733),DRSC06793,0.514,-0.264,-1.82,inactive

Next results follow.
gene knocked down,amplicon,"Wolbachia per cell robust z, rep 1","Wolbachia per cell robust z, rep 2","Wolbachia per cell robust z, rep 3",outcome
2SrRNA-Psi:CR40677 (GeneID 5740367),DRSC38646,-7.04,-0.24,-1.12,inactive
Hsp70Bb + Hsp70Ba + Hsp70Bbb + 1 more,DRSC21248,1.21,0.456,1.17,inactive
lbk (GeneID 36788),DRSC07178,-0.292,0.706,-0.153,inactive
para (GeneID 32619),DRSC20360,0.502,0.273,0.964,inactive
para (GeneID 32619),DRSC40707,0.0888,-1.28,-2.49,inactive
VhaAC39-2 (GeneID 42739),DRSC15609,-2.49,-0.318,-0.315,inactive
Csp (GeneID 40459),DRSC11860,0.67,-6.1,0.102,inactive
Csp (GeneID 40459),DRSC40822,-1.55,-0.231,0.865,inactive
Cpr47Eg (GeneID 36196),DRSC07330,-0.138,0.281,-0.409,inactive
CG11722 (GeneID 41227),DRSC14358,-5.88,-0.511,-1.23,inactive
CG34417 (GeneID 31591),DRSC18332,-0.356,-6.69,-1.98,active
CG34417 (GeneID 31591),DRSC18333,0.0233,0.171,-4.68,inactive
CG34417 (GeneID 31591),DRSC28478,-0.368,-3.87,-0.752,inactive
Cdk7 (GeneID 31441),DRSC18451,-0.644,-0.721,1.14,inactive
Cdk7 (GeneID 31441),DRSC23327,-0.0719,-8.13,-0.931,inactive
skd (GeneID 43906),DRSC11898,-1.32,-0.825,-0.161,inactive
skd (GeneID 43906),DRSC40751,0.208,-0.539,0.819,inactive
Ggamma30A + borr,DRSC24954,3.59,-2.69,-0.15,inactive
CG1233 (GeneID 38063),DRSC08269,0.763,-0.414,0.229,inactive
CG1233 (GeneID 38063),DRSC26110,-0.911,-1.39,-0.532,inactive
lovit (GeneID 26067050),DRSC37733,0.105,0.303,0.361,inactive
lovit (GeneID 26067050),DRSC37850,0.739,-0.662,-0.469,inactive
lovit (GeneID 26067050),DRSC41342,0.939,-1.76,-0.0423,inactive
CG14591 (GeneID 35531),DRSC04868,-2.24,-2.98,-0.601,inactive
yrt (GeneID 41656),DRSC16559,0.0924,0.0434,-0.0582,inactive
SLC5A11 (GeneID 34117),DRSC03088,0.992,0.626,0.038,inactive
rols (GeneID 39368),DRSC09873,0.34,-0.898,-0.14,inactive
rols (GeneID 39368),DRSC10254,-0.544,-0.183,0.415,inactive
rols (GeneID 39368),DRSC10536,-0.837,-1.93,-3.95,active
rols (GeneID 39368),DRSC40704,1.31,-0.0342,-1.46,inactive
Pepck2 (GeneID 37130),DRSC06013,0.924,1.07,1.09,inactive
Pepck2 (GeneID 37130),DRSC26167,0.0879,-1.83,0.422,inactive
Pepck2 (GeneID 37130),DRSC41592,-0.479,0.0147,-2.61,inactive
LBR (GeneID 37482),DRSC04298,-0.384,-0.0151,0.154,inactive
LBR (GeneID 37482),DRSC29462,0.0294,-2.7,1.11,inactive
mmy (GeneID 33903),DRSC02002,-0.397,0.465,-2.66,inactive
Zasp66 (GeneID 38988),DRSC08932,0.0728,0.731,0.623,inactive
Zasp66 (GeneID 38988),DRSC10631,-0.481,-8.61,0.108,inactive
Zasp66 (GeneID 38988),DRSC10632,-2.74,1.6,0.983,inactive
